Measured values from several laboratories, pooled; numbers as filed in NIAID ChemDB.

Common to all: growth or infection tests; organism: Plasmodium falciparum; read-out: EC50

An empty or dashed field is not shown. Rows are shuffled and stem from different studies. ECn: concentration that inhibits the pathogen or its effect by n%.

smiles,strain or isolate,changes,cell line,method,value
CCOc1ccc2nc(C)cc(Nc3ccc4c(c3)OCCO4)c2c1,3D7,-,Erythrocytes,flow cytometry,1.99 µM
CCCCCCc1ncn(CC(=O)CC2NCCC[C@@H]2O)c(=O)c1CCCCCC,FCR3,-,Human A+ erythrocytes,LDH / absorbance,>1 µg/mL
CCOc1ccc(Nc2cc(C)nc3ccc(OC)cc23)cc1,K1,-,Erythrocytes,flow cytometry,6.09 µM
O=c1c2ccccc2ncn1CCCC1NCCC[C@@H]1O,K1,-,Human A+ erythrocytes,LDH / absorbance,0.0236 µg/mL
O=C(CN1C(=O)SC(=Cc2ccccc2Cl)C1=O)N1CCN(c2ccccc2)CC1,W2,Chloroquine-resistant,-,fluorescence,>10 µM
CCc1cccc(OCCCCN(C)Cc2ccccc2)c1,K1,-,Erythrocytes,flow cytometry,6.22 µM
O=C(CC1NCCC[C@@H]1O)Cn1cnc2c(c1=O)CCCC2,FCR3,-,Human A+ erythrocytes,LDH / absorbance,0.079 µg/mL
C[C@@H]1CC[C@H]2[C@@H](C)C(=O)O[C@@H]3OC4(C)CC[C@@H]1[C@]32OO4,FCM29,-,human red blood cells,broth dilution / radiometric,0.0125 µM
COc1cc(OC)c(C=C2SC(=O)N(Cc3ccc(F)cc3F)C2=O)c(OC)c1,W2,Chloroquine-resistant,-,fluorescence,>10 µM
C[C@@H]1CC[C@H]2[C@@H](C)C(=O)O[C@@H]3OC4(C)CC[C@@H]1[C@]32OO4,Dd2 (EF1),Multidrug-resistant,-,SYBR Green / fluorescence,0.0209 µM
O=C(CC1NCCC[C@@H]1O)Cn1cnc(-c2ccccc2)cc1=O,FCR3,-,Human A+ erythrocytes,LDH / absorbance,0.0937 µg/mL
COc1ccc(C=C2SC(=O)N(CC(=O)N3CCN(c4ccccc4)CC3)C2=O)c(OC)c1,W2,Chloroquine-resistant,-,fluorescence,4.65 µM
CCCCC1(CC(=O)OCC)C(=O)N(c2ccccc2)N(c2ccccc2)C1=O,K1,-,Erythrocytes,flow cytometry,7.91 µM
O[C@H](c1cc(C(F)(F)F)nc2c(C(F)(F)F)cccc12)[C@@H]1CCCCN1,GNF-Pf4492R-3,GNF-Pf4492-resistant pfatp4 A187V,-,SYBR Green / fluorescence,0.0161 µM
COc1ccc(Nc2cc(C)nc3c2ccc2ccccc23)cc1OC,3D7,-,Erythrocytes,flow cytometry,3.99 µM
CC1(C)O[C@@H]1COc1c2occc2cc2ccc(=O)oc12,CQ-sensitive,-,RBC,-,2.85 µg/mL
COc1cc(OC)c(C=C2SC(=O)N(C34CC5CC(CC(C5)C3)C4)C2=O)c(OC)c1,W2,Chloroquine-resistant,-,fluorescence,>10 µM
C[C@@H]1C[C@H](C)C[C@H](C)[C@@H](O)CC(=O)O[C@@H](C2CCC[C@H]2C(=O)O)C/C=C/C=C(/CN)[C@H](O)[C@@H](C)C1,K1,-,Erythrocyte,LDH,0.00093 µg/mL
CCc1ccc(OCCCCN(C)Cc2ccccc2)cc1,3D7,-,Erythrocytes,flow cytometry,>12.4 µM
O=C(C[C@H]1NCCC[C@@H]1O)Cn1cnc2c(c1=O)CCC2,FCR3,-,Human A+ erythrocytes,LDH / absorbance,0.0747 µg/mL
CC1CCN(CCCCOc2ccc(C(=O)c3ccccc3)cc2)CC1,3D7,-,Erythrocytes,flow cytometry,>14.8 µM
O[C@H](c1cc(C(F)(F)F)nc2c(C(F)(F)F)cccc12)[C@@H]1CCCCN1,F32,-,human red blood cells,broth dilution / radiometric,0.043 µM
CCc1ncn(CC(=O)CC2NCCC[C@@H]2O)c(=O)c1CC,FCR3,-,Human A+ erythrocytes,LDH / absorbance,0.197 µg/mL

Repeating the first 2 entries:

smiles | strain or isolate | changes | cell line | method | value
CCOc1ccc2nc(C)cc(Nc3ccc4c(c3)OCCO4)c2c1 | 3D7 | - | Erythrocytes | flow cytometry | 1.99 µM
CCCCCCc1ncn(CC(=O)CC2NCCC[C@@H]2O)c(=O)c1CCCCCC | FCR3 | - | Human A+ erythrocytes | LDH / absorbance | >1 µg/mL